The target of experiment [1] is native HIV-1 capsid (wild type CA lattice of authentic viral cores) (HIV-1 (pNL4.3-iGFP-ΔEnv and psPAX2)). The experiment can be described thus: TIRF fluorescence microscopy binding assay.
Experiment [2] shares this target. Briefly: TIRF fluorescence microscopy binding assay. The source holds these as a separate data set.

Read-outs that look alike come from different tables or passages of the source.

On to “wild type cyclophilin A (CypA) (from UniProt P62937 1-165) (enzyme)”, for which the figures for the Kd in experiment [1] and in experiment [2] were 10.7 µM and 11.6 µM, respectively. Further, the stoichiometry N was determined as 987 in experiment [2] (scale: CypA loops occupied at saturation per capsid) and 1380 in experiment [2] (scale: CypA molecules bound per capsid at saturation).
